Anti-infective test results gathered from many reports (values: NIAID ChemDB through PubChem).

Shared fields: whole-cell or culture tests; agent: Mycobacterium avium

Inhibition is in % at the dose shown (toxicity tests: loss of growth or viability).

structure,strain,read by,setting,measure,tested at,value
CCCCCNC(=O)Nc1ccc(S(=O)(=O)Nc2cc(C)on2)cc1,330/88,broth dilution / absorbance,14 d,MIC100,-,500 µM
NCC[C@H](O)C(=O)N[C@@H]1C[C@H](N)[C@@H](O[C@H]2O[C@H](CN)[C@@H](O)[C@H](O)[C@H]2O)[C@H](O)[C@H]1O[C@H]1O[C@H](CO)[C@@H](O)[C@H](N)[C@H]1O,9 isolates (HIV+),-,-,MIC50,-,64 µg/mL
CO[C@H]1/C=C/O[C@@]2(C)Oc3c(C)c(O)c4c(O)c(c(N5CCN(Cc6c(C)cc(C)cc6C)CC5)c(O)c4c3C2=O)NC(=O)/C(C)=C\C=C\[C@H](C)[C@H](O)[C@@H](C)[C@@H](O)[C@@H](C)[C@H](OC(C)=O)[C@@H]1C,3350-4,-,-,MBC,-,8 µg/mL
CNC(=O)Nc1ccc(S(=O)(=O)Nc2cc(C)on2)cc1,330/88,broth dilution / absorbance,21 d,MIC100,-,125 µM
Cc1cc(O)c2c(c1)C(=O)C=CC2=O,-,-,-,MFC,-,300 µg/mL
CC[C@@H](CO)NCCN[C@@H](CC)CO,1435,-,-,MIC,-,8 µg/mL
CN[C@@H]1[C@H](O[C@H]2[C@H](O[C@H]3[C@H](O)[C@@H](O)[C@H](N=C(N)N)[C@@H](O)[C@@H]3N=C(N)N)O[C@@H](C)[C@]2(O)C=O)O[C@@H](CO)[C@H](O)[C@H]1O,ATCC 25291,-,-,Median MIC,-,1.13 µg/mL
CC1CN(c2c(F)c(N)c3c(=O)c(C(=O)O)cn(C4CC4)c3c2F)CCN1C,14 strains,-,-,MIC90,-,2 µg/mL
CC1=CC(=O)c2c(ccc(C3=C(C)C(=O)c4cccc(O)c4C3=O)c2O)C1=O,-,-,-,MFC,-,90 µg/mL
CCNC(=O)Nc1ccc(S(=O)(=O)Nc2cc(C)on2)cc1,330/88,broth dilution / absorbance,21 d,MIC100,-,1000 µM
CCc1cc(C(N)=S)ccn1,1435-C clarithromycin-resistant,-,-,MIC,-,>8 µg/mL
CC1=C(C)C(=O)c2ccccc2C1=O,MAC104,-,-,MBC,-,400 µg/mL
NCC[C@H](O)C(=O)N[C@@H]1C[C@H](N)[C@@H](O[C@H]2O[C@H](CN)[C@@H](O)[C@H](O)[C@H]2O)[C@H](O)[C@H]1O[C@H]1O[C@H](CO)[C@@H](O)[C@H](N)[C@H]1O,ATCC 25291,-,-,Median MIC,-,5 µg/mL
CC1=CC(=O)c2c(O)cccc2C1=O,MAC104,-,-,MBC,-,12.5 µg/mL
CNC(C)C1CCN(c2c(F)c(N)c3c(=O)c(C(=O)O)cn(C4CC4)c3c2OC)C1,PI4/44,-,-,MIC,-,8 µg/mL
C[C@@H]1CN(c2c(F)c(N)c3c(=O)c(C(=O)O)cn(C4CC4)c3c2F)C[C@H](C)N1,ATCC 25291,-,-,Mean MIC,-,8 µg/mL
CO[C@H]1/C=C/O[C@@]2(C)Oc3c(C)c(O)c4c(O)c(c(/C=N/N5CCN(C)CC5)c(O)c4c3C2=O)NC(=O)/C(C)=C\C=C\[C@H](C)[C@H](O)[C@@H](C)[C@@H](O)[C@@H](C)[C@H](OC(C)=O)[C@@H]1C,-,resazurin,-,EC50,-,>200 µg/mL
N[C@@H]1CONC1=O,ATCC 25291,-,-,Mean MIC,-,44 µg/mL
N[C@@H]1CONC1=O,3090-C clarithromycin-resistant,-,-,MIC,-,16 µg/mL
CO[C@H]1/C=C/O[C@@]2(C)Oc3c(C)c(O)c4c(=O)c(c5oc6cc(N7CCN(CC(C)C)CC7)cc(=O)c6nc5c4c3=C2O)NC(=O)/C(C)=C\C=C\[C@H](C)[C@H](O)[C@@H](C)[C@@H](O)[C@@H](C)[C@H](OC(C)=O)[C@@H]1C,453,-,-,MBC,-,>0.125 µg/mL
CN(C)c1ccc(O)c2c1C[C@H]1C[C@H]3[C@H](N(C)C)C(=O)C(C(N)=O)=C(O)[C@@]3(O)C(=O)C1=C2O,ATCC 25291,-,-,Mean MIC,-,32 µg/mL
CC[C@H]1OC(=O)[C@H](C)[C@@H](O[C@H]2C[C@@](C)(OC)[C@@H](O)[C@H](C)O2)[C@H](C)[C@@H](O[C@@H]2O[C@H](C)C[C@H](N(C)C)[C@H]2O)[C@](C)(OC)C[C@@H](C)C(=O)[C@H](C)[C@@H](O)[C@]1(C)O,9 isolates (HIV+),-,-,MIC50,-,4 µg/mL
Nc1ccc(S(=O)(=O)Nc2nccs2)cc1,-,-,-,EC50,-,12.5–25 µg/mL
Cc1cc(-c2cc3c(cc2F)c(=O)c(C(=O)O)cn3C2CC2)cc(C)n1,3349,-,-,MBC,-,8 µg/mL
CCn1cc(C(=O)O)c(=O)c2cc(F)c(N3CCC(CNCCO)C3)c(F)c21,14 strains,-,-,MIC90,-,32 µg/mL
O=C(O)c1cn(C2CC2)c2cc(N3CCNCC3)c(F)cc2c1=O,-,-,-,EC50,-,380 µg/mL
CCCCCCCNC(=O)Nc1ccc(S(=O)(=O)Nc2cc(C)on2)cc1,330/88,broth dilution / absorbance,21 d,MIC100,-,62.5 µM
CC(C)N=c1cc2n(-c3ccc(Cl)cc3)c3ccccc3nc-2cc1Nc1ccc(Cl)cc1,1435-C clarithromycin-resistant,-,-,MIC,-,0.12 µg/mL
Nc1ccc(C(=O)O)c(O)c1,ATCC 25291,-,-,Median MIC,-,64 µg/mL
CCNC(C)C1CCN(c2c(F)cc3c(=O)c(C(=O)O)cn(C4CC4)c3c2OC)C1,PI2/8,-,-,MIC,-,0.12 µg/mL
CC[C@H]1OC(=O)[C@H](C)[C@@H](O[C@H]2C[C@@](C)(OC)[C@@H](O)[C@H](C)O2)[C@H](C)[C@@H](O[C@@H]2O[C@H](C)C[C@H](N(C)C)[C@H]2O)[C@](C)(OC)C[C@@H](C)C(=O)[C@H](C)[C@@H](O)[C@]1(C)O,ATCC 25291,-,-,Mean MIC,-,3.25 µg/mL
Cc1cc(C2CCCC2)nc2c(C3CCCC3)cccc12,-,-,-,inhibition,6.25 µg/mL,inactive
CCc1cc(C(N)=S)ccn1,ATCC 25291,-,-,Mean MIC,-,>4.5 µg/mL
O=C(O)c1cccc2ccccc12,MAC104,-,-,MBC,-,3200 µg/mL

MIC50, MIC90 and the like: level of inhibition, or share of isolates inhibited. Blank or dashed fields: not listed here. For "inactive" no cut-off is given. Two numbers with a dash give a range or band. ECn is the concentration giving n% inhibition of infection, replication or growth. Rows are shuffled and stem from different studies.